Our source for the IC50 and EC50 values is BindingDB's records for 32852058.

The structures appear in SMILES notation.

The target in experiment [1] is Replicase polyprotein 1ab (Severe acute respiratory syndrome coronavirus, UniProt P0C6X7). Put plainly: ASSAY_NAME: No assay is provided DESCRIPTION: This is a review article.
For experiment [2], the target named is Spike glycoprotein [668-1255] (SARS-CoV, UniProt P59594). The description is as above.

Usually IC50 stands for the concentration needed to halve the response being measured. Consider `O=C[C@H](Cc1c[nH]cn1)NC[C@@H]1C[C@@H]2CCCC[C@H]2CN1C(=O)c1ccc(-c2ccccc2)cc1`, for which the IC50 in experiment [1] stood at 108 µM.
Same read-out and setting: in the case of `O=C[C@H](Cc1c[nH]cn1)NC[C@@H]1C[C@@H]2CCCC[C@H]2CN1C(=O)c1ccccc1` it was 68 µM.
For orientation: EC50 means the concentration giving half of the maximal effect. Higher therefore signals a less potent agent. Turning to `O=C(OC[C@H]1O[C@@H](OC(=O)c2cc(O)c(O)c(O)c2)[C@H](OC(=O)c2cc(O)c(O)c(O)c2)[C@H](OC(=O)c2cc(O)c(O)c(O)c2)[C@@H]1O)c1cc(O)c(O)c(O)c1`, the EC50 in experiment [2] is 4.4 µM. That is a single-digit micromolar value.
As for `O=C[C@H](Cc1c[nH]cn1)NC[C@H]1C[C@H]2CCCC[C@@H]2CN1C(=O)c1ccc(-c2ccccc2)cc1`, the IC50 in experiment [1] was found to be 240 µM.
In the case of `O=c1cc(-c2ccc(O)c(O)c2)oc2cc(O)cc(O)c12`, a half-maximal response in experiment [2] (EC50) required 10.6 µM.
